Results of unrelated studies side by side (data: NIAID ChemDB).

All rows: tests in culture; species: Aspergillus fumigatus; measure: zone

Neighbouring rows are from separate reports. a–b is a range or a potency band. Blank or dashed fields: not listed here. Zone: diameter of growth inhibition.

compound,tested at,strain or isolate,method,value
CCC(C)CCCCCCCCCCC(=O)N[C@H]1C[C@@H](O)[C@@H](O)NC(=O)C2[C@@H](O)[C@@H](C)CN2C(=O)C(CO)NC(=O)C([C@H](O)C(O)c2ccc(O)cc2)NC(=O)NC(=O)[C@@H]2C[C@@H](O)CN2C(=O)[C@H]([C@@H](C)O)NC1=O,2 mg/mL,AF-1,agar,35 mm
Cc1c(N2C(=O)CSC23C(=O)N(CCCCCCBr)c2ccc(F)cc23)c(=O)n(-c2ccccc2)n1C,100 µg/mL,MTCC 343,agar diffusion,0 mm
CCC(C)CCCCCCCCCCC(=O)N[C@H]1C[C@@H](O)[C@@H](Sc2ccccc2)NC(=O)C2[C@@H](O)[C@@H](C)CN2C(=O)C(CO)NC(=O)C([C@H](O)C(O)c2ccc(O)cc2)NC(=O)NC(=O)[C@@H]2C[C@@H](O)CN2C(=O)[C@H]([C@@H](C)O)NC1=O,2 mg/mL,AF-1,agar,17 mm
Cc1[nH]c2ccc(OC(F)(F)F)cc2c1CNC(=O)CCc1cn(C)c2ccc(Cl)cc12,25 µg/mL,NCIM 902,,<10 mm
Nc1nc(COC(=O)c2ccccc2)cs1,25 µg/mL,NCIM No. 902,,<10 mm
Cc1ccc2c(c1)C1(SCC(=O)N1c1c(C)n(C)n(-c3ccccc3)c1=O)C(=O)N2CCCCCCN1C(=O)C2(c3cc(F)ccc31)c1c(C)nn(-c3ccccc3)c1Oc1c2c(C)nn1-c1ccccc1,100 µg/mL,MTCC 343,agar diffusion,13 mm
CC1=Cc2c(CO)c(O)c(C)c(O)c2CO1,100 µM,IFM 41362,agar diffusion,12 mm
CCOC(=O)c1ccc(-c2nn(-c3ccccc3)cc2-c2ccc([N+](=O)[O-])cc2)nc1C,5 mg/mL,,agar diffusion / agar,6 mm
CCC(C)CCCCCCCCCCC(=O)N[C@H]1C[C@@H](O)[C@@H](S(=O)(=O)CC(=O)OC)NC(=O)C2[C@@H](O)[C@@H](C)CN2C(=O)C(CO)NC(=O)C([C@H](O)C(O)c2ccc(O)cc2)NC(=O)NC(=O)[C@@H]2C[C@@H](O)CN2C(=O)[C@H]([C@@H](C)O)NC1=O,1 mg/mL,AF-1,agar,20 mm
COC(=O)N[C@H](C(=O)NN(CC[C@]1(Cc2ccccc2)C(=O)N(C2c3ccccc3C[C@H]2O)C[C@H]1O)Cc1ccc(Br)cc1)C(C)(C)C,10 mg/mL,RCMB 002003,agar diffusion / agar,18.8 mm
COc1ccccc1N1CCN(CC(=O)N2c3ccccc3Sc3ccccc32)CC1,0.1 µg/mL,,agar diffusion,11 mm
OC(COc1ccccc1/C=N\n1c(-c2cccnc2)n[nH]c1=S)COc1ccccc1/C=N\n1c(-c2cccnc2)n[nH]c1=S,5 mg/mL,RCMB 002008,agar diffusion / agar,1–5 mm
Cc1ccc2c(c1)C1(C(=O)N2CCCCCCN2C(=O)C3(SCC(=O)N3c3c(C)n(C)n(-c4ccccc4)c3=O)c3ccccc32)c2c(C)nn(-c3ccccc3)c2Oc2c1c(C)nn2-c1ccccc1,100 µg/mL,MTCC 343,agar diffusion,0 mm
Nc1nc(COC(=O)c2ccco2)cs1,25 µg/mL,NCIM No. 902,,<10 mm
Cc1ccc2c(c1)C1(C(=O)N2CCCCCCN2C(=O)C3(SCC(=O)N3c3c(C)n(C)n(-c4ccccc4)c3=O)c3cc(C)ccc32)c2c(C)nn(-c3ccccc3)c2Oc2c1c(C)nn2-c1ccccc1,100 µg/mL,MTCC 343,agar diffusion,14 mm
Cn1cc(CCC(=O)NCc2cn(C)c3ccc(Cl)cc23)c2cc(Cl)ccc21,25 µg/mL,NCIM 902,,<10 mm
COC(=O)N[C@H](C(=O)NN(CC[C@@]1(Cc2ccccc2)C(=O)N(C2c3ccccc3C[C@H]2O)C[C@H]1O)Cc1ccc(-c2cccnc2)cc1)C(C)(C)C,10 mg/mL,RCMB 002003,agar diffusion / agar,18.8 mm
CCC(C)CCCCCCCCCCC(=O)N[C@H]1C[C@@H](O)[C@@H](Sc2ccccc2)NC(=O)C2[C@@H](O)[C@@H](C)CN2C(=O)C(CO)NC(=O)C([C@H](O)C(Sc2ccccc2)c2ccc(O)cc2)NC(=O)NC(=O)[C@@H]2C[C@@H](O)CN2C(=O)[C@H]([C@@H](C)O)NC1=O,5 mg/mL,AF-1,agar,17 mm
CC(=O)C1=NN(c2ccccc2)C2=Nc3nccc(-c4nn(-c5ccccc5)cc4-c4ccc([N+](=O)[O-])cc4)c3C(=O)C12,1.25 mg/mL,,agar diffusion / agar,3 mm
Cc1ccc2c(c1)C1(C(=O)N2CCCCCCN2C(=O)C3(SCC(=O)N3c3c(C)n(C)n(-c4ccccc4)c3=O)c3cc(F)ccc32)c2c(C)nn(-c3ccccc3)c2Oc2c1c(C)nn2-c1ccccc1,100 µg/mL,MTCC 343,agar diffusion,12 mm
Nc1nc(COC(=O)c2ccccc2[N+](=O)[O-])cs1,25 µg/mL,NCIM No. 902,,<10 mm
CCC(C)CCCCCCCCCCC(=O)N[C@H]1C[C@@H](O)[C@@H](NCCN2CCOCC2)NC(=O)C2[C@@H](O)[C@@H](C)CN2C(=O)C(CO)NC(=O)C([C@H](O)C(O)c2ccc(O)cc2)NC(=O)NC(=O)[C@@H]2C[C@@H](O)CN2C(=O)[C@H]([C@@H](C)O)NC1=O,2 mg/mL,AF-1,agar,20 mm
O=C(CCc1c[nH]c2ccc(Cl)cc12)NCCCc1c[nH]c2ccc(OC(F)(F)F)cc12,25 µg/mL,NCIM 902,,<10 mm
Nc1nc(COC(=O)c2ccc(Br)cc2)cs1,25 µg/mL,NCIM No. 902,,<10 mm
Cc1nn(-c2ccccc2)c2c1C1(C(=O)N(CCCCCCN3C(=O)C4(SCC(=O)N4c4c(C)n(C)n(-c5ccccc5)c4=O)c4cc(F)ccc43)c3ccc(F)cc31)c1c(C)nn(-c3ccccc3)c1O2,100 µg/mL,MTCC 343,agar diffusion,15 mm
CCC(C)CCCCCCCCCCC(=O)N[C@H]1C[C@@H](O)[C@@H](OC)NC(=O)C2[C@@H](O)[C@@H](C)CN2C(=O)C(CO)NC(=O)C([C@H](O)C(O)c2ccc(O)cc2)NC(=O)NC(=O)[C@@H]2C[C@@H](O)CN2C(=O)[C@H]([C@@H](C)O)NC1=O,5 mg/mL,AF-1,agar,35 mm
COC(=O)N[C@H](C(=O)NN(CCC[C@@]1(Cc2ccccc2)C(=O)N(C2c3ccccc3C[C@H]2O)C[C@H]1O)Cc1ccc(-c2cccnc2)cc1)C(C)(C)C,10 mg/mL,RCMB 002003,agar diffusion / agar,18.8 mm
CCOC(=O)C1=NN(c2ccccc2)C2=Nc3nccc(-c4nn(-c5ccccc5)cc4-c4ccc([N+](=O)[O-])cc4)c3C(=O)C12,1.25 mg/mL,,agar diffusion / agar,2 mm
Cc1ccccc1N1CCN(CC(=O)N2c3ccccc3Sc3ccccc32)CC1,0.1 µg/mL,,agar diffusion,12 mm
COC(=O)N[C@H](C(=O)NN(CCC[C@@]1(Cc2ccccc2)C(=O)N(C2c3ccccc3C[C@H]2O)C[C@H]1O)Cc1ccc(Br)cc1)C(C)(C)C,10 mg/mL,RCMB 002003,agar diffusion / agar,18.8 mm
Cc1ccc(-n2cc(-c3ccc([N+](=O)[O-])cc3)c(-c3ccon3)n2)cc1,1.25 mg/mL,,agar diffusion / agar,2 mm
C[C@@H]1[C@H](O)[C@@H](C)/C=C/C=C/C=C/C=C/C=C/C=C/C=C/[C@H](O[C@@H]2O[C@H](C)[C@@H](O)[C@H](N)[C@@H]2O)C[C@@H]2O[C@](O)(C[C@@H](O)C[C@@H](O)[C@H](O)CC[C@@H](O)C[C@@H](O)CC(=O)O[C@H]1C)C[C@H](O)[C@H]2C(=O)O,10 µg,,agar diffusion,17.58 mm

3 of the rows above, restated:

OC(COc1ccccc1/C=N\n1c(-c2cccnc2)n[nH]c1=S)COc1ccccc1/C=N\n1c(-c2cccnc2)n[nH]c1=S ; tested at: 5 mg/mL ; strain or isolate: RCMB 002008 ; method: agar diffusion / agar ; value: 1–5 mm
Nc1nc(COC(=O)c2ccco2)cs1 ; tested at: 25 µg/mL ; strain or isolate: NCIM No. 902 ; value: <10 mm
COc1ccccc1N1CCN(CC(=O)N2c3ccccc3Sc3ccccc32)CC1 ; tested at: 0.1 µg/mL ; method: agar diffusion ; value: 11 mm